Measured values: patent publication US20070172933A1, “Thermally stable amidases” (priority 2003, published 2007)

What was measured:
[1] = pH dependence of the amidase activity (hydrolysis of benzamide); type: biochemical, Pseudonocardia thermophila
[2] = Temperature dependence of the amidase activity; type: biochemical, Pseudonocardia thermophila

B1: amidase: thermally stable amidase purified from Pseudonocardia thermophila (DSMZ 43832); SEQ ID No. 1, 2, 3 (protein, listed as Pseudonocardia thermophila)
chain 1: IHMPDPDAV
chain 2: DGLPVGLMIVGKHF
chain 3: MIHMPDPDAVARMAAEGRFGIPVVVICRTYHDLGHRPARLVEQGRRAVRGGGPHPAAALVDPPRRRGRQARRVGGADLDHRNLGGAARRPHGRGQDNVAVAGVPMMNGSRTLEGFVPAEDATVVSRLLAAGATIAGKSVCEDLCFSGGSHTSKPGTVHNPWDMSRSAGGSSSGSGALVAAGEVDMAIGGDQGGSIRIPSAYCGTVGHKPTHGLVPYTGGFPIEQSIDHLGPITRTVADAALMLSVIAGRDGLDPRQPDVVEVQDYVGALAESVSGLRIGVLQEGFGHPNSEPEVDDTVRAAVGTLREAGFTVEDVSVPWHLHATAIWDVLATEGGLWQMVEGNAYGMHWKGHYDPSLIAYYGRKWREDPAQFSETVKLVALAGRYALTTQYGRHYAMARNLAPKLVAAYDAALSNYDVLVMPTLPMRATVLPGPDAPVEEILARGLEMLANTAPFDVTGHPACSVPAGLADGLPVGLMIVGKHFDDATVLKVANAFEQAVGGFPTPAAZ
pH opt. ([1]; Table 4, inventive amidase): 7.0 | pH optimum ([1]; benzamide 5 mM, 70° C., FIG. 4): about 7 | T opt. in ° C. ([2]; Table 4, inventive amidase): 70 °C | temperature optimum ([2]; pH 7.2, 30° C. to 90° C., FIG. 3): approximately 70 °C
